PubChem BioAssay AID1224833 – University of Georgia – 2016

Aim: 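Host factors restraining rotavirus as candidate antiviral genes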 (primary screen)
System: monkey MA104 kidney cells
Reagent: siRNA pool against human genes, 50 nM
Duration: 48 h knock-down before infection; read 24 h after infection
Treatment: infection with rotavirus strain RV3 two days after transfection; infectious dose for this stage not given
Read-out: 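z-score of rotavirus antigen signal per well, from a fluorescent immunoassay, relative to non-targeting control wells on the same plate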
Reading the numbers: z-score vs non-targeting control: higher = more rotavirus replication than with non-targeting control
Call rule: In these data the active calls have z-score vs non-targeting control at about -1 or lower, or at about 1 or higher
Meaning of the calls: active = z-score beyond 1 either way; inactive = z-score within 1 of zero
Here is one part, drawn at random, of about 12,000 deposited reagents. About 5,600 of them (46%) count as active. 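Active calls cover z-scores past 1 in both directions, so they include lowered as well as raised rotavirus replication.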 A number with no mark means an inactive call.

no.	gene	z-score vs non-targeting control
1	TRNAU1AP (tRNA selenocysteine 1 associated protein 1)	-0.933
2	MAB21L1 (mab-21 like 1)	-0.205
3	PLA2G4D (phospholipase A2 group IVD)	0.691
4	NIPA1 (NIPA magnesium transporter 1)	0.155
5	DDX5 (DEAD-box helicase 5)	1.53 (active)
6	TMEM132A (transmembrane protein 132A)	2.57 (active)
7	DEFB130A (defensin beta 130A)	-1.34 (active)
8	CCKBR (cholecystokinin B receptor)	-1.26 (active)
9	ZNF324B (zinc finger protein 324B)	0.465
10	MORF4L2 (mortality factor 4 like 2)	-0.423
11	KIF17 (kinesin family member 17)	-1.64 (active)
12	AKAP14 (A-kinase anchoring protein 14)	0.528
13	GJA5 (gap junction protein alpha 5)	-1.46 (active)
14	RAB8A (RAB8A, member RAS oncogene family)	-1.97 (active)
15	C10orf90 (chromosome 10 open reading frame 90)	-0.486
16	NSMCE2 (NSE2 SUMO ligase component of SMC5/6 complex)	-0.89
17	ARHGAP25 (Rho GTPase activating protein 25)	-0.558
18	NAP1L2 (nucleosome assembly protein 1 like 2)	0.633
19	BCAS4 (breast carcinoma amplified sequence 4)	-2.55 (active)
20	MTHFD2	-1.22 (active)
21	ADAMTS19 (ADAM metallopeptidase with thrombospondin type 1 motif 19)	-1.19 (active)
22	PTX3 (pentraxin 3)	-0.467
23	MBNL2 (muscleblind like splicing regulator 2)	0.909
24	NFE2L1 (NFE2 like bZIP transcription factor 1)	2.01 (active)
25	KRT28 (keratin 28)	-0.487
26	PUM2 (pumilio RNA binding family member 2)	-1.11 (active)
27	TAS2R14 (taste 2 receptor member 14)	1.79 (active)
28	PCDHB12 (protocadherin beta 12)	-2.09 (active)
29	PSMD6 (proteasome 26S subunit, non-ATPase 6)	1.73 (active)
30	BMP8B (bone morphogenetic protein 8b)	-1.21 (active)
31	C8orf33 (chromosome 8 open reading frame 33)	1.75 (active)
32	TMEM165 (transmembrane protein 165)	-1.95 (active)
33	TRMT2A (tRNA methyltransferase 2A)	-0.508
34	PSMG3 (proteasome assembly chaperone 3)	0.902
35	VEPH1 (ventricular zone expressed PH domain containing 1)	1.21 (active)
36	CTNNA1 (catenin alpha 1)	-0.95
37	MSLN (mesothelin)	-0.718
38	SFXN2 (sideroflexin 2)	-0.949
39	TLE2 (TLE family member 2, transcriptional corepressor)	-0.541
40	FZD8 (frizzled class receptor 8)	0.617
41	UMOD (uromodulin)	0.0014
42	SORT1 (sortilin 1)	2.27 (active)
43	DYSF (dysferlin)	1.49 (active)
44	OR2A4 (olfactory receptor family 2 subfamily A member 4)	0.343
45	OR51M1 (olfactory receptor family 51 subfamily M member 1)	2.38 (active)

Targets listed so far whose gene name starts with K or k:
gene	z-score vs non-targeting control
KIF17 (kinesin family member 17)	-1.64 (active)
KRT28 (keratin 28)	-0.487
